Results taken from publication PMC11653257, “Organometallic Half-Sandwich Complexes of 8-Hydroxyquinoline-Derived Mannich Bases with Enhanced Solubility: Targeting Multidrug Resistant Cancer” (Inorganic Chemistry, 2024).

Key:
Conditions in all cases: pH 7.4 (PBS’), waiting time 24 h
[1] = Adduct formation with HSA binding model FHA (UV–vis)
[2] = Adduct formation with HSA binding model MIM (UV–vis)
[3] = Adduct formation with HSA binding model AHA (UV–vis)

| Molecule | logK’(FHA) [1] | logK’(MIM) [2] | logK’(AHA) [3] |
| --- | --- | --- | --- |
| [RhCp*(HQCl-Pip)Cl]Cl [(3)] | 4.52 ± 0.01 | 4.48 ± 0.12 | 4.13 ± 0.01 |
| [RuCym(HQCl-Pyr)Cl]Cl [(2)] | 5.31 ± 0.01 | 5.85 ± 0.03 | 5.39 ± 0.02 |
| Cc1c(C)c(C)[c-](C)c1C.[Cl-].[Cl-].[O-]c1c(C[NH+]2CCCC2)cc(Cl)c2cccnc12.[Rh+3] [(1), [RhCp*(HQCl-Pyr)Cl]Cl] | 4.52 ± 0.02 | 4.50 ± 0.07 | 4.30 ± 0.01 |
| [RuCym(HQCl-Pip)Cl]Cl [(4)] | 5.38 ± 0.04 | 5.86 ± 0.07 | 5.37 ± 0.02 |
